Reference: patent publication US12673036B2, “Method of using L-triiodothyronine (T3) for the treatment of tissue hypoxia and sepsis” (UNI-PHARMA KLEON TSETIS PHARMACEUTICAL LABORATORIES S.A., priority 2020, dated 2026)

Tested on: critically ill patients with COVID-19 infection

N[C@@H](Cc1cc(I)c(Oc2ccc(O)c(I)c2)c(I)c1)C(=O)O [T3, L-triiodothyronine]
tachycardia, atrial fibrillation, ventricular arrhythmias (heart rate) (first 48 hours): did not induce significant tachycardia, atrial fibrillation, or ventricular arrhythmias | d-dimers levels (first 48 hours after high-dose T3): remain unchanged | safety, serious side effects (arrhythmias, pulmonary embolism) (intubated COVID-19 patients): safe, without serious side effects
